Laboratory results published in patent US20170198014A1, “POLYPEPTIDES AND THEIR USE FOR TREATING INFLUENZA” ([…] ITS CENTER FOR COMMERCIALIZATION, priority 2014, published 2017).

Key:
[1] = target: hemagglutinin H1 (A/New Caledonia/20/1999) (influenza A virus A/New Caledonia/20/1999 (H1N1)); test: BLI (FIG. 4)
[2] = target: hemagglutinin H3 (A/Hong Kong/1/1968-H3N2) (influenza A virus A/Hong Kong/1/1968 (H3N2)) (UniProt Q91MA7); test: BLI (Octet), Ni-NTA purified protein

| Binder | Kd [1] [nM] | Kd [2] [nM] |
| --- | --- | --- |
| Hsc1, monovalent version (designed binder) GIVNVPNCNTTKYQQLARTAVAIYNYHEQAHLTFVENLNCKEQLGEGDYYYITLAATDDAGKKAIYEAKIGVVESAGWTGVEEFKLV | 1120 |  |
| HAA.6 fused to 24solo2 (designed binder) SKDSPIIEANGTLDELTSFIGEAKHYVDAEMQGILEEIQNDIYKIMGEIGSKGKIEGISEERIKWLEGLISRYEEMVNLKSFVLPGGTLESAKLDVCRTIARRAERKVATVLREFGIGKEALVYLNRLSDLLFLLARVIEIEASGMLAISMDTDKISNSFEDCKYFLIELKSAGWTNTIFNDESGKEEIVKMGVDAIICKNISEENYKKFSKKIEIYHAEGDDVNKNISLFLEGELSKISNP |  | 4.87 |
| HAA.4 fused to 24alt1 (designed binder) KMEELFKKHKIVAVLRANSVEEAKEKALAVFEGGVHLIEITFTVPDADTVIKELSFLKEKGAIIGAGTVTSVEQCRKAVESGAEFIVSPHLDEEISQFCKEKGVFYMPGVMTPTELVKAMKLGHTILKLFPGQVVGPQFVKAMKGPFPNVKFVPTGGVNLSNVAAWFAAGVLAVGVGSALVKGTPNNVREKAKAFVEAIRGAASGMLAISMDTDKISNSFEDCKYFQLYVLSAGWTNTIFNDESGKEEIVKMSVDAIICKNISEENYKKFSKKIEIYHAEGDDVDKNISLFLEGELSKISNP |  | 4.3 |
